Values joined by “and” are separate entries in the source; they are usually repeats but may differ in a detail not shown here. Equal entries are not always repeated.

The test concerns the target human ACE2 ectodomain with human IgG1 Fc tag (human) (UniProt Q9BYF1). Kind of test: BLI. Background: Biolayer interferometry detects binding as a change in optical thickness at a sensor tip.

What is called koff is the rate constant with which the complex falls apart. A lower koff goes with a long-lived complex. As a reminder, the kon is the rate constant with which the complex forms. A low value points to slower complex formation. For the substance “SARS-CoV-2 spike protein of Beta (B.1.351), S^Beta, recombinant trimeric protein (domain or fragment)”, the off-rate constant (koff) was 6.27e-05 s⁻¹ and 3.37e-05 s⁻¹ and 3.66e-05 s⁻¹; the kon is 114000 M⁻¹ s⁻¹ and 103000 M⁻¹ s⁻¹ and 77700 M⁻¹ s⁻¹.

The values above are taken from PMC8828469, “Enhanced fitness of SARS-CoV-2 variant of concern Alpha but not Beta” (2021).
